Measurements as given in ChEMBL document CHEMBL1201862, “PubChem BioAssay data set” (2004).

Legend:
[1] = Vero E6 cell cytotoxicity, dose response, cytotoxicity control for non-replicating M. tuberculosis project, secondary assay (AID 492998); format: functional, VeroE6; settings: Vero C1008
[2] = THP-1 cell cytotoxicity, dose response, cytotoxicity control for non-replicating M. tuberculosis project (AID 489025); format: functional

**Q.** With `O=C(Nc1cccnc1)c1ccc([N+](=O)[O-])s1` as the compound, how does the CC50 [1] read?
**A.** active: 8.54 µM

**Q.** And the CC50 [2]?
**A.** active: 13.5 µM

Active and inactive are the calls of the source. No rule for the calls is given here.
